# Taken from: PubChem BioAssay AID504761 (Drosophila RNAi Screening Center, 2011)
# Test: 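Genome-wide fly cell screen for genes dengue virus requires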 (primary screen)
# Cell system: D.Mel-2 cells from Drosophila
# Knock-down reagent: long dsRNA against Drosophila genes
# Conditions: infection with dengue virus type 2; dose and infection time not stated
# Detection: 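Cells stained for dengue envelope protein and imaged; percent of infected cells per well on duplicate plates, ranked by infection, with stained nuclei counted for cell number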
# Direction: infection score: higher = more virus-infected cells; cell count: higher = more cells in the well
# Call rule: 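Very low infection ranking in both replicate wells (chance probability at most 0.065), then a retest showing infection dropped 1.5-fold or more at p below 0.05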
# Meaning of the calls: active = confirmed: knock-down lowers infection; inactive = not picked or not confirmed
# The deposit covers about 22,000 reagents; shown is a random part of those with a known target gene and a result. In the full data, 116 (0.52%) got an active call. 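Calls depend on retest data that are not deposited; infection was ranked per plate without normalising between plates; the unit of the infection score is not given.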 The raw values are shown without normalisation. Reagents against one gene are numbered here. No sequences are given here. The record does not give: the amount of reagent, the time to read-out.
Target gene,reagent no.,"infection score, replicate 1","infection score, replicate 2","cell count, replicate 1","cell count, replicate 2",call
Elba1,1,8.28,1.36,6231,6817,inactive
Elba1,2,1.95,2.63,6620,6085,inactive
par-6,1,5.16,12,6452,6190,inactive
par-6,2,6.03,4.92,2968,6751,inactive
Capr,1,4.09,1.28,5922,5857,inactive
Capr,2,6.74,2.91,5788,5813,inactive
CG4151,1,5.14,3.95,5892,5922,inactive
CG31145,1,6.03,10.4,6120,5078,inactive
CG31145,2,14.4,,5470,439,inactive
CG31145,3,3.44,2.25,6652,5237,inactive

Next part, starting with the last 2 of the part before.
Target gene,reagent no.,"infection score, replicate 1","infection score, replicate 2","cell count, replicate 1","cell count, replicate 2",call
CG31145,2,14.4,,5470,439,inactive
CG31145,3,3.44,2.25,6652,5237,inactive
ND-49L,1,3.07,9.12,6410,6339,inactive
ND-49L,2,10.8,7.64,6550,6744,inactive
CG32066,1,7.57,1.69,6089,6210,inactive
CG32066,2,0.98,1.36,5709,5968,inactive
Naprt,1,7.76,3.86,5849,6018,inactive
Naprt,2,9.06,17,6281,5141,inactive
WDR79,1,1.4,1.42,5933,6208,inactive
CG7881,1,5.53,8.81,6783,5845,inactive
PIG-S,1,5.69,,6591,252,inactive
PIG-S,2,1.35,8.89,5695,4880,inactive
PIG-S,3,6.69,21.9,6124,5889,inactive
eIF2Balpha,1,4.97,1.97,6317,6584,inactive
CG9030,1,6.58,3.44,6475,6425,inactive
